Among the data in PMC6624301, “Structural basis for transcription antitermination at bacterial intrinsic terminator” (2019) are Kd values, retold here.

In this assay the target is fluorescein-labeled P7 (R73C) (bacteriophage Xp10). As to the kind of experiment: fluorescence polarisation. On the technique in general: Fluorescence polarisation rises when a labelled molecule tumbles more slowly, as on binding a larger partner.

In general, Kd refers to the equilibrium constant for the complex coming apart. In turn, “Xoo RNAP core enzyme (from UniProt B2SQT4;B2SQQ1;B2SQQ2;Q2P6M7) (complex)” came in with an equilibrium dissociation constant (Kd) of 6.1 nM. “Xoo transcription elongation complex (from UniProt B2SQT4;B2SQQ1;B2SQQ2;Q2P6M7)” displayed a Kd of 6.6 nM.
